pKd: −log10 of the molar value.
Target: SARS-CoV-2 spike S1 alpha variant (B.1.1.7) (SARS-CoV-2)
Assay: BLI

With “Fc-tag tagged human ACE2 (from UniProt Q9BYF1) (Fc fusion)” the pKd was 7.68.
